# Laboratory results taken from publication PMC12002540, “Vibrio cholerae cytolysin induces pro-inflammatory and death signals through novel TLR assembly” (PLOS Pathogens, 2025).
# B1: Vibrio cholerae cytolysin (VCC), mature monomeric form (natural protein)
# chain: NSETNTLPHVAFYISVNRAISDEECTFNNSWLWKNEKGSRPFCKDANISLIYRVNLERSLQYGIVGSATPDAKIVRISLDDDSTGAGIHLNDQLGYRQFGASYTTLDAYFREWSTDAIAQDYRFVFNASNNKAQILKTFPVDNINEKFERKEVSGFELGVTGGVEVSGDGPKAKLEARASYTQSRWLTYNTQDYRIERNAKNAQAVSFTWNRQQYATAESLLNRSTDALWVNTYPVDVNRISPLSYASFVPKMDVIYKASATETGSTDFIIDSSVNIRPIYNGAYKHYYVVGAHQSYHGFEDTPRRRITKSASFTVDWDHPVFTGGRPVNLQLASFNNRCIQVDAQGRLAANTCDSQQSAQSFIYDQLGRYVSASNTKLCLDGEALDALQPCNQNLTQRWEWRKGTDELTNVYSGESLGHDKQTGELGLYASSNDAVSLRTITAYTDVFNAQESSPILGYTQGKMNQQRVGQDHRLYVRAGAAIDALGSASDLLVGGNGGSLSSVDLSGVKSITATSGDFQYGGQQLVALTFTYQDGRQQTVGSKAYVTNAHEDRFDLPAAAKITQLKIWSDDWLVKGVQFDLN
# Target: the molecule itself
# Assay: SDS-PAGE without boiling (SDS-stable oligomer), Coomassie staining
protein,measurement,value
B1,binding result,binds
